From paper PMC7940615 (Scientific Reports, 2021)

What was measured:
[1] = system: human lung A549 cells
[2] = system: Vero E6 cells

SMILES: NC(N)=Nc1nc(CSCCC(N)=NS(N)(=O)=O)cs1 [Famotidine]
- cytotoxicity (in words) [1]: not toxic
- cytotoxicity (in words) [2]: not toxic
